A mixed list of measured activities; the numbers were collected in NIAID ChemDB.

Common to all: whole-cell or culture tests; agent: HIV-1; read by: cytopathic effect / MTT; measure: inhibition

Blank or dashed fields: not listed here. Lines come from different laboratories, so protocols vary. Percent inhibition refers to the dose given; in toxicity tests it is the harm to the cells.

structure | strain | cell line | changes | tested at | value
CO[C@H]1[C@@H](O)[C@H](n2ccc(N)nc2=O)[C@@H](O)[C@H](O)[C@@H]1O | IIIB | MT-4 | - | 10 µg/mL | 25.5%
C1CNCCNCCCN(CCCN2CCCNCCNCCCNCC2)CCNC1 | RF | MT-4 | - | 0.87 µM | 90%
Cc1cn([C@H]2CC[C@@H](CO)O2)c(=O)n(N)c1=O | BRU | CEM-C113 + CEM/C113 | - | 100 µM | 0%
NCCS | IIIB | CEM | - | 100 µM | 100%
COc1ccc(CN[C@@H](C(=O)N[C@H]2c3ccccc3C[C@H]2O)[C@H](O)[C@H](Cc2ccccc2)NC(=O)[C@@H](NC(=O)OC(C)(C)C)C(C)(C)C)cc1 | IIIB | MT-4 | - | 3 µM | 0%
Cc1cn([C@H]2C=C[C@@H](CO)O2)c(=O)[nH]c1=O | IIIB | MT-4 | - | 2.7 µM | 70%
Cc1cc(SC2=C(O)CC(CCc3ccc(O)cc3)(C(C)C)OC2=O)c(C(C)(C)C)cc1CO | IIIB | CEM | - | 1 µM | 90%
CC(C)(C)OC(=O)N[C@@H](Cc1ccccc1)[C@@H](O)[C@@H](NCc1ccc(CNC(=O)CCc2nc3ccccc3[nH]2)cc1)C(=O)NCc1ccccc1 | IIIB | MT-4 | - | 3 µM | 0%
CCCCCCCCCC(=O)O[C@@]12[C@H](OCOC)[C@@H](C)[C@@]3(O)[C@@H](C=C(CO)C[C@]4(O)C(=O)C(C)=C[C@@H]34)[C@@H]1C2(C)C | IIIB | MT-4 + mouse plasma + MT-4 | - | 0.1 µg/mL | 100%
C[C@H](NC(=O)[C@H](CCCN=C(N)N)NC(=O)c1ccc(CNCc2ccccn2)cc1)c1cccc2ccccc12 | IIIB X4 laboratory isolate | MT-4 | - | 0.0478 µM | 90%
Cc1cc(SC2=C(O)CC(CCc3ccc(N)cc3)(C(C)C)OC2=O)c(C(C)(C)C)cc1CO | IIIB | CEM | - | 1 µM | 90%
CO[C@H]1[C@@H](O)[C@H](n2cnc3c(N)ncnc32)[C@@H](O)[C@H](O)[C@@H]1O | IIIB | MT-4 | - | 10 µg/mL | 87.2%
CC(=O)N[C@@H](CS)C(=O)O | IIIB | CEM | - | 100 µM | 6%
CCCCCCCCCC(=O)O[C@@]12[C@H](OC(C)=O)[C@@H](C)[C@@]3(O)[C@@H](C=C(CO)C[C@]4(O)C(=O)C(C)=C[C@@H]34)[C@@H]1C2(C)C | IIIB | MT-4 | - | 0.1 µg/mL | 100%
CC(=O)OCOP(=O)(OCOC(C)=O)C(=O)Oc1ccc(Cl)cc1Cl | IIIB | H9 | - | 8 µM | >70%
CC(C)(S)[C@@H](N)C(=O)O | IIIB | CEM | - | 100 µM | 29.3%
CCOc1ccc(CN[C@@H](C(=O)N[C@H]2c3ccccc3C[C@H]2O)[C@H](O)[C@H](Cc2ccccc2)NC(=O)OC(C)(C)C)cc1 | IIIB | MT-4 | - | 3 µM | 0%
CO[C@@H]1[C@@H](O)[C@@H](O)[C@H](O)[C@H](O)[C@H]1n1ccc(N)nc1=O | IIIB | MT-4 | - | 10 µg/mL | 52.4%
Nc1nc(NC2CC2)c2ncn([C@H]3C=C[C@@H](CO)O3)c2n1 | BRU PITT.(RT-M184V) | PBMC | RT-M184V | 11 µM | 90%
COc1ccc(CN[C@@H](C(=O)N[C@H]2c3ccccc3C[C@H]2O)[C@H](O)[C@H](Cc2ccccc2)NC(=O)[C@H](CC(=O)O)NC(=O)OCc2ccccc2)cc1 | IIIB | MT-4 | - | 3 µM | 0%